Experimental data: PubChem BioAssay AID1259414 (Drosophila RNAi Screening Center, 2018)

Test: 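Fly genes that alter Wolbachia amount inside host cells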 (primary screen)
Cell system: Drosophila JW18 cells infected with Wolbachia
Reagent: long dsRNA against Drosophila genes, 0.25 µg dsRNA per well of a 384-well plate
Time to read-out: 5 days
Challenge: cells persistently infected with Wolbachia before knock-down; no added drug
Detection: 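Automated imaging of bacterial rRNA staining divided by host cell count, reported as plate-normalised robust z-score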
Reading the numbers: Wolbachia per cell robust z: higher = more Wolbachia per host cell than the plate typical
Active means: 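Hit when robust z is 1.5 or more, or -1.5 or less, in at least two of three replicates; excludes dsRNAs with several or no targets, genes not expressed in JW18 and well A1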
In all, the deposit lists about 24,000 reagents; below is a random part of those that have a named target and a result. Of all reagents, about 1,210 (5%) were called active. 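Inactive calls also include excluded dsRNAs with several or no targets, genes unexpressed in JW18, and well A1, regardless of score.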 Reagents against one gene are numbered here. Names joined by + are all predicted targets of the reagent.

Target gene,reagent,"Wolbachia per cell robust z, rep 1","Wolbachia per cell robust z, rep 2","Wolbachia per cell robust z, rep 3",activity call
CG8925,1,1.22,0.956,0.321,inactive
CG8925,2,-0.641,-0.787,-0.268,inactive
CG8925,3,0.069,-0.763,-0.254,inactive
CG13946,1,-5.67,0.244,-9.96,inactive
CG4198,1,-1.28,0.641,-2.45,inactive
CG4198,2,-1.3,-0.0579,1.66,inactive
Sfp70A4,1,1.13,1.13,-1.37,inactive
Cyp12d1-p + Cyp12d1-d,1,0.587,1.04,0.24,inactive
lncRNA:CR43250,1,0.713,0.642,0.952,inactive
CG46301,1,-2.18,-5.39,-2.51,inactive
CG46301,2,-0.0899,-0.442,0.0279,inactive
CG46301,3,-0.25,-0.427,-0.161,inactive
CG46301,4,-1.23,0.27,-1.25,inactive
Pgant1,1,-1.27,-0.592,0.256,inactive
CG42788,1,-0.0262,-1.23,-0.994,inactive
CG42788,2,-0.743,-0.61,-0.711,inactive
CG42788,3,-1.38,-2.94,-1.73,active
CG42788,4,0.43,-1.05,-0.907,inactive
CG3916,1,0.409,-1.42,1.29,inactive
CG3916,2,-0.191,-0.0627,-1.75,inactive
CG13062,1,-0.952,0.714,0.3,inactive
CG13062,2,0.686,0.179,0.5,inactive
CG13062,3,-2.22,-0.113,-0.19,inactive
Clamp,1,-0.0451,0.905,-3.06,inactive
Clamp,2,-0.611,-0.411,-0.114,inactive
Clamp,3,0.111,0.338,-3.85,inactive
Ssl1,1,-2.67,-1.44,0.299,inactive
ssp3,1,-0.575,-0.324,-0.0538,inactive
ssp3,2,-1.63,0.525,-0.0433,inactive
ssp3,3,-0.329,-1.28,-1.56,inactive
cv-c,1,-5.82,-0.821,0.76,inactive
cv-c,2,-0.828,-0.742,-0.0464,inactive
cv-c,3,-2.39,0.2,-0.306,inactive
cv-c,4,0.563,0.113,1.38,inactive
cv-c,5,0.267,0.197,-0.16,inactive
cv-c,6,1,-1.19,2.45,inactive
cv-c,7,0.37,-0.111,-0.892,inactive
cv-c,8,0.205,-2.29,-0.333,inactive
Lrt,1,-0.604,-3.92,0.2,inactive
Lrt,2,0.633,1.02,1.47,inactive
CG8405,1,0.421,-9.5,-0.3,inactive
CG8405,2,-3.05,-0.911,-1.71,active
CG11596,1,0.859,-0.391,1.08,inactive
CG11596,2,0.527,0.805,0.385,inactive
pkaap,1,-1.78,-1.33,-1.54,active
hth,1,0.304,-0.607,-0.894,inactive
hth,2,-1.42,-0.109,0.501,inactive
Taf10b,1,-0.402,0.812,0.482,inactive
Pgi,1,1.44,-0.434,1.19,inactive
Pgi,2,-0.389,-0.0473,0.967,inactive
SdhBL,1,1.03,0.698,0.837,inactive
CG31068,1,-0.0974,0.266,0.566,inactive
pre-mod(mdg4)-U + mod(mdg4),1,-0.372,0.586,-7.62,inactive
Arf4,1,-0.118,1.13,0.537,inactive
Arf4,2,0.133,0.379,1.07,inactive
CG17261,1,0,-0.0494,0.341,inactive
CG42853,1,0.405,0.483,0.451,inactive
RpL6,1,0.479,-2.97,0.652,inactive
RpL6,2,1.55,1.42,0.452,inactive
RpL6,3,2.34,3.38,3.37,active
CG15712,1,0.751,1.09,0.734,inactive
ND-B15,1,0.0609,-0.146,-2.61,inactive
CAHbeta,1,-1.95,-0.0803,-0.735,inactive
Cyp4d8,1,-0.208,0.18,0.726,inactive
Cyp4d8,2,-0.373,-1.39,-7.21,inactive
mAcon1,1,0.672,-2.4,-0.93,inactive
mAcon1,2,-0.556,-1.01,0.0075,inactive
mAcon1,3,1.92,0.718,0.61,inactive

Laid out differently: results already given
Cyp12d1-p + Cyp12d1-d | Wolbachia per cell robust z, rep 1: 0.587; Wolbachia per cell robust z, rep 2: 1.04; Wolbachia per cell robust z, rep 3: 0.24; activity call: inactive
lncRNA:CR43250 | Wolbachia per cell robust z, rep 1: 0.713; Wolbachia per cell robust z, rep 2: 0.642; Wolbachia per cell robust z, rep 3: 0.952; activity call: inactive
CG46301 #1 | Wolbachia per cell robust z, rep 1: -2.18; Wolbachia per cell robust z, rep 2: -5.39; Wolbachia per cell robust z, rep 3: -2.51; activity call: inactive
CG46301 #2 | Wolbachia per cell robust z, rep 1: -0.0899; Wolbachia per cell robust z, rep 2: -0.442; Wolbachia per cell robust z, rep 3: 0.0279; activity call: inactive
CG46301 #3 | Wolbachia per cell robust z, rep 1: -0.25; Wolbachia per cell robust z, rep 2: -0.427; Wolbachia per cell robust z, rep 3: -0.161; activity call: inactive
CG46301 #4 | Wolbachia per cell robust z, rep 1: -1.23; Wolbachia per cell robust z, rep 2: 0.27; Wolbachia per cell robust z, rep 3: -1.25; activity call: inactive
Pgant1 | Wolbachia per cell robust z, rep 1: -1.27; Wolbachia per cell robust z, rep 2: -0.592; Wolbachia per cell robust z, rep 3: 0.256; activity call: inactive
CG42788 #1 | Wolbachia per cell robust z, rep 1: -0.0262; Wolbachia per cell robust z, rep 2: -1.23; Wolbachia per cell robust z, rep 3: -0.994; activity call: inactive
CG42788 #2 | Wolbachia per cell robust z, rep 1: -0.743; Wolbachia per cell robust z, rep 2: -0.61; Wolbachia per cell robust z, rep 3: -0.711; activity call: inactive
